A mixed list of measured activities; the numbers were collected in NIAID ChemDB.

All rows: tests in culture; organism: Aspergillus niger; read-out: MFC

Neighbouring rows are from separate reports. Blank or dashed fields: not listed here.

SMILES | read by | strain | value
C=C(C(=O)O[C@H]1CC(C)=CCC/C(CO)=C/[C@H]2OC(=O)C(=C)[C@H]12)C(O)CO | - | ATCC 6275 | 0.25 µg/mL
Clc1ccc(CO/N=C2\c3ccccc3OCC2n2cncn2)c(Cl)c1 | - | ATCC 16401 | 16 µg/mL
OB1OCc2cc(F)ccc21 | turbidity | - | 0.9 µg/mL
Clc1ccc(CO/N=C2\c3ccccc3OCC2n2cncn2)cc1 | - | ATCC 16401 | 16 µg/mL
O=C(Nc1nc2ccccc2s1)c1cn[nH]c1C(=O)c1ccc(Cl)cc1 | broth dilution | - | 5 µg/mL
C=C(C(=O)O[C@H]1C[C@]2(C)[C@H]([C@@H](CO)CC[C@H]2O)[C@H]2OC(=O)C(=C)[C@@H]21)C(O)CO | - | ATCC 6275 | 1 µg/mL
Brc1ccc(CO/N=C2\c3ccccc3OCC2n2cncn2)cc1 | - | ATCC 16401 | 16 µg/mL
CCCCCCCCCCCCCCCCCCCCCC[C@H](O)CCCCCC | broth dilution | - | 500 µM
OB1OC(N2CCCCC2)c2ccccc21 | turbidity | - | 62.5 µg/mL
Fc1ccc(CO/N=C2/c3ccccc3OCC2n2cncn2)cc1 | - | ATCC 16401 | 64 µg/mL
CC(C)CC1NC(=O)CC(CCCCCCCCC(C)O)OC(=O)C(CC(C)C)NC(=O)C(CC(C)C)NC(=O)C(CC(C)C)NC(=O)C(C(C)C)NC(=O)C(CC(=O)O)NC(=O)C(CC(C)C)NC1=O | visual reading | ATCC 16404 | >32 µg/mL
OB(O)c1ccccc1 | turbidity | - | 500 µg/mL
Fc1ccccc1CO/N=C1/c2ccccc2OCC1n1cncn1 | - | ATCC 16401 | 64 µg/mL
C=C(C(=O)O[C@H]1CC(C)=CCC/C(CO)=C/[C@H]2OC(=O)C(=C)[C@H]12)C(O)COC(C)=O | - | ATCC 6275 | 0.25 µg/mL
OB(O)c1c(F)cc(F)cc1F | turbidity | - | 250 µg/mL

Repeating the final 2 entries:

SMILES,read by,strain,value
C=C(C(=O)O[C@H]1CC(C)=CCC/C(CO)=C/[C@H]2OC(=O)C(=C)[C@H]12)C(O)COC(C)=O,-,ATCC 6275,0.25 µg/mL
OB(O)c1c(F)cc(F)cc1F,turbidity,-,250 µg/mL